Measurements reported in patent publication US20260069689A1, “ANTI-SARS-COV-2-SPIKE GLYCOPROTEIN ANTIBODIES AND ANTIGEN-BINDING FRAGMENTS” (Regeneron, published 2026).
Positions count from the first letter of the chain named. Where “and” joins values, the source holds several entries; their conditions need not be identical. Equal values may be shown once.

Assays:
[1] = molecular target: SARS-CoV-2 S protein variant P.1 (full sequence) (SARS-CoV-2); assay: cell-based or functional assay
[2] = molecular target: SARS-CoV-2 S protein variant B.1.617.2 (full sequence) (SARS-CoV-2, T19R; G142D; E156G; F157del; R158del; L452R; T478K; D614G; P681R; D950N); assay: cell-based or functional assay
[3] = molecular target: SARS-CoV-2 S protein variant B.1.617.1 (full sequence) (SARS-CoV-2); assay: cell-based or functional assay
[4] = molecular target: SARS-CoV-2 S protein variant BA.3 (full sequence) (SARS-CoV-2); assay: cell-based or functional assay
[5] = molecular target: SARS-CoV-2 S protein variant BA.4/BA.5 (full sequence) (SARS-CoV-2); assay: cell-based or functional assay
[6] = molecular target: SARS-CoV-2 S protein variant C.1.2 (SARS-CoV-2); assay: cell-based or functional assay
[7] = molecular target: T1, full-length SARS-CoV-2 spike protein (Wuhan-Hu-1) on Jurkat/hCD20 cells (SARS-CoV-2, UniProt P0DTC2 14-1273); assay: cell-based or functional assay
[8] = molecular target: T2, full-length SARS-CoV-2 BA.1 S protein on Jurkat/hCD20 cells (SARS-CoV-2 (BA.1 omicron lineage), UniProt P0DTC2 14-1273); assay: cell-based or functional assay
[9] = molecular target: T1, full-length SARS-CoV-2 spike protein …; assay: cell-based or functional assay; remark: listed apart in the source
[10] = molecular target: T2, full-length SARS-CoV-2 BA.1 S protein …; assay: cell-based or functional assay; remark: listed apart in the source
[11] = molecular target: SARS-CoV-2 RBD.mmh (Spike amino acids Arg319-Phe541 with C-terminal myc-myc-6-Histidine tag) (SARS-CoV-2, UniProt P0DTC2 319-541)
[12] = molecular target: SARS-COV-2 RBD-MMH (SARS-COV-2 RBD extracellular domain with C-terminal myc-myc-hexahistidine tag) (SARS-CoV-2)
[13] = molecular target: T1, full-length SARS-CoV-2 spike protein …; assay: cell-based or functional assay; remark: listed apart in the source
[14] = molecular target: T3, human CD20 on Jurkat cells (human, UniProt P11836 1-297); assay: cell-based or functional assay
T3 sequence: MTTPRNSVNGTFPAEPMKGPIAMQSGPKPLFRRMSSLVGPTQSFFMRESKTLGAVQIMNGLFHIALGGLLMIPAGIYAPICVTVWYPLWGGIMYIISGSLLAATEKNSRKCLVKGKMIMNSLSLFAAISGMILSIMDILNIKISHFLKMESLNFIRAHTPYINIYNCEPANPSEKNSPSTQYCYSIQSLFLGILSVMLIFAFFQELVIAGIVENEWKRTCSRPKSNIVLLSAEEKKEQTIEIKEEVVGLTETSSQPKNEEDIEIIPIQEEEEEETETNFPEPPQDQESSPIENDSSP

[15] = molecular target: T1, full-length SARS-CoV-2 spike protein …; assay: cell-based or functional assay; remark: listed apart in the source
[16] = molecular target: SARS-CoV-2 S protein variant B.1.617.1 (Kappa) (SARS-CoV-2); assay: cell-based or functional assay
[17] = molecular target: SARS-CoV-2 S protein variant BA.4/BA.5 (Omicron) (SARS-CoV-2); assay: cell-based or functional assay
[18] = molecular target: SARS-CoV-2 S protein variant P.1 (Gamma) (SARS-CoV-2); assay: cell-based or functional assay
[19] = molecular target: SARS-CoV-2 S protein variant B.1.617.2 (Delta) (SARS-CoV-2, T19R; G142D; E156G; F157del; R158del; L452R; T478K; D614G; P681R; D950N); assay: cell-based or functional assay
[20] = molecular target: SARS-CoV-2 spike protein, full P.1 variant (SARS-CoV-2); assay: cell-based or functional assay
[21] = molecular target: human FcγR3a 176Val allotype receptor (human, UniProt P08637 17-254); assay: cell-based or functional assay
[22] = molecular target: SARS-CoV-2 D614G spike protein variant (SARS-CoV-2); assay: cell-based or functional assay

B1: mAb14284 (antibody, V domains shown)
VH: QITLKESGPTLVKPTQTLTLTCTFSGFSFSTSGVGVGWIRQPPGKTLEWLALIYWDDDKRYSPSLKSRLTITKDTSKNQVVLTMTNMDPVDTATYFCAHHGIPTIFGYWGQGALVTVSS
VL: QSALTQPASVSGSPGQSITISCTGTSSDLGVFNYVSWYQQHPGKAPKLMIYEVTNRPSGVSNRFSGSKSGNTASLTISGLQAEDEADYYCSSYTTSSTVFGGGTKLTVLG
Binder B1 has an IC50 [1] of 0.00834 nM, an IC90 [1] of 0.0752 nM and an IC50 [2] of 0.00609 nM. For the same binder, the IC90 [2] was 0.0607 nM, the IC50 [3] was 0.0424 nM and the IC90 [3] was 0.384 nM. The IC50 [4] was 0.0222 nM, the IC90 [4] was 0.441 nM and the IC50 [5] was 0.0185 nM. The IC90 [5] was 0.189 nM, the IC50 [6] was 0.0316 nM and the IC90 [6] was 0.32 nM.

B2: mAb14284 (antibody, V domains shown)
VH: B1 VH
VL: B1 VL
B2 was tested, and the “EC50 (M) of ADCP, MDM donor #2, Jurkat/hCD20/SARS-CoV-2 Wu-1 S cells” value [7] was 1.64e-11 M, the “EC50 (M) of ADCP, MDM donor #1, Jurkat/hCD20/SARS-CoV-2 BA.1 S cells” value [8] was 3.11e-11 M and the “EC50 (M) of ADCP, MDM donor #2, Jurkat/hCD20/SARS-CoV-2 BA.1 S cells” value [8] was 3.73e-11 M. For the same binder, the “EC50 (M) of ADCC, pooled primary NK cells, Jurkat/hCD20/SARS-CoV-2 Wu-1 S cells” value [9] was 6.41e-12 M and the “EC50 (M) of ADCC, pooled primary NK cells, Jurkat/hCD20/SARS-CoV-2 BA.1 S cells” value [10] was 2.64e-11 M.

B3: mAb14235 (antibody, V domains shown)
VH: QITLKESGPTLVKPTQTLTLTCTFSGFSLNTGGVGVGWIRQPPGNALEWLALIYWDDDKRYNPSLKTRLTISKDTSKNQVVLTMTNMDPVDTATYFCAHLTIAVIVDFWGQGTLVTVSS
VL: B1 VL with G24A, L29V, V31T, F32Y, Y38F, Q40H, S96T, T98I
In the case of B3, the “% Blocking at 100 nM mAb concentration” value [11] is reported as 96% and the “RBD.mmh Bound at pH 7.4 (RU)” value [12] is reported as 71.2 RU and 80.8 RU.

B4: mAb14260 (antibody, V domains shown)
VH: EVQLVESGGGLVQPGGSLRLSCAASGFTFSIYEMNWVRQAPGKGLEWVSYITSSGFTIYYADSVKGRFTISRDNAKNSLYLQMHSLRAEDTAVYYCATSSSSGYYFDYWGQGTLVTVSS
VL: not shown
B4 was tested, and the “% Blocking at 100 nM mAb concentration” value [11] was 96%, the IC50 [11] was 0.127 nM and the “RBD.mmh Bound at pH 7.4 (RU)” value [12] was 74.5 RU and 83 RU. The koff [12] was 0.00188 s⁻¹ and 0.00166 s⁻¹, the “t½ Ratio of pH 7.4 to pH 6.0” value [12] was 0.9 and the “t½ at pH 6.0” value [12] was 6.9 min. The “t½ at pH 7.4” value [12] was 6.2 min.

B5: mAb15160 (antibody, V domains shown)
VH: EVQLVESGGGLVQPGGSLRLSCSASGFTFSRYAMYWVRQAPGKGLEYVSAISSDGGSTYDADSVKGRFTISRANSKNTLYLQMSSLRAEDTAVYYCVKGLRELLYYYYGMDVWGQGTTVTVSS
VL: DIQMTQSPSSLSASVGDRVTITCRAGQSISSFLNWYQQKPGKAPKLLIYAASSLQSGVPSRFSGSGSGTDFTLTISSLQPEDFATYYCQQSYITPFTFGPGTKVDIKR
With B5 the “EC50 (M) of ADCP, MDM donor #1, Jurkat/hCD20/SARS-CoV-2 S FL cells” value [13] was 7.81e-11 M, the “EC50 (M) of ADCP, MDM donor #2, Jurkat/hCD20/SARS-CoV-2 S FL cells” value [13] was 4.76e-11 M and the “Max ADCP (%), MDM donor #1, Jurkat/hCD20/SARS-CoV-2 S FL cells” value [13] was 27.5%. The “Max ADCP (%), MDM donor #2, Jurkat/hCD20/SARS-CoV-2 S FL cells” value [13] was 31.1%, the “Max ADCP (%), MDM donor #1, Jurkat/hCD20 cells” value [14] was 14.7% and the “Max ADCP (%), MDM donor #2, Jurkat/hCD20 cells” value [14] was 11.1%. For the same binder, the “Max cytotoxicity (%), ADCC, NK donor #1, Jurkat/hCD20/SARS-CoV-2 S FL cells” value [15] was 1.8%, the “Max cytotoxicity (%), ADCC, NK donor #2, Jurkat/hCD20/SARS-CoV-2 S FL cells” value [15] was 6.3% and the “Max cytotoxicity (%), ADCC, NK donor #3, Jurkat/hCD20/SARS-CoV-2 S FL cells” value [15] was 12.9%.

B6: mAb10987 (Imdevimab) (antibody, V domains shown)
VH: QVQLVESGGGVVQPGRSLRLSCAASGFTFSNYAMYWVRQAPGKGLEWVAVISYDGSNKYYADSVKGRFTISRDNSKNTLYLQMNSLRTEDTAVYYCASGSDYGDYLLVYWGQGTLVTVSS
VL: QSALTQPASVSGSPGQSITISCTGTSSDVGGYNYVSWYQQHPGKAPKLMIYDVSKRPSGVSNRFSGSKSGNTASLTISGLQSEDEADYYCNSLTSISTWVFGGGTKLTVLG
For B6, the “IC50” value [16] was 0.0151 nM, the “IC90” value [16] was 0.163 nM and the “IC50” value [17] was 1.38 nM. The “IC90” value [17] was 11 nM, the “IC50” value [18] was 0.00458 nM and the “IC90” value [18] was 0.0646 nM. The “IC50” value [19] was 0.0104 nM and the “IC90” value [19] was 0.211 nM.

B7: mAb14255 (antibody)
heavy: not shown
light: QSALTQPASVSGSPGQSITISCTGTSSDVGSYNLVSWYQQHPGKAPKLMIYEDSKRPSGVANPFSGSKSGNTASLTISGLQAEDEADYYCSSYAGSSTWVFGGGTKLTVLGQPKAAPSVTLFPPSSEELQANKATLVCLISDFYPGAVTVAWKADSSPVKAGVETTTPSKQSNNKYAASSYLSLTPEQWKSHRSYSCQVTHEGSTVEKTVAPTECS
For B7, the “IC50 (pseudoparticle neutralization)” value [20] was 0.041 nM.

B8: mAb10933 (Casirivimab) (antibody, V domains shown)
VH: QVQLVESGGGLVKPGGSLRLSCAASGFTFSDYYMSWIRQAPGKGLEWVSYITYSGSTIYYADSVKGRFTISRDNAKSSLYLQMNSLRAEDTAVYYCARDRGTTMVPFDYWGQGTLVTVSS
VL: DIQMTQSPSSLSASVGDRVTITCQASQDITNYLNWYQQKPGKAPKLLIYAASNLETGVPSRFSGSGSGTDFTFTISGLQPEDIATYYCQQYDNLPLTFGGGTKVEIKR
For B8, the “IC50” value [19] was 0.00432 nM and the “IC90” value [19] was 0.0423 nM.

B9: mAb10987 (antibody)
heavy: not shown
light: QSALTQPASVSGSPGQSITISCTGTSSDVGGYNYVSWYQQHPGKAPKLMIYDVSKRPSGVSNRFSGSKSGNTASLTISGLQSEDEADYYCNSLTSISTWVFGGGTKLTVLGQPKAAPSVTLFPPSSEELQANKATLVCLISDFYPGAVTVAWKADSSPVKAGVETTTPSKQSNNKYAASSYLSLTPEQWKSHRSYSCQVTHEGSTVEKTVAPTECS
In the case of B9, the “Fold induction, Jurkat CD20” value [21] is reported as 1 fold and the “Fold induction, Jurkat/CD20/spike” value [21] is reported as 4.5 fold.

B10: mAb14256 (antibody)
heavy: not shown
light: QSVLTQPPSVSGAPGQRVTISCTGSSSNIGTHYDVHWYQQLPGTAPKLLIYGNSNRPSGVPDRFSGSKSGTSASLAITGLQAEDEADYYCQSFDNSLTAPYVFGTGTKVTVLGQPKAAPSVTLFPPSSEELQANKATLVCLISDFYPGAVTVAWKADSSPVKAGVETTTPSKQSNNKYAASSYLSLTPEQWKSHRSYSCQVTHEGSTVEKTVAPTECS
For B10, the “IC50 (pseudoparticle neutralization)” value [20] was 0.013 nM and the “IC50 (pseudoparticle neutralization)” value [22] was 0.0533 nM.
